Among the data in US20170081324A1 (priority 2015, published 2017) are Ki values, retold here.

pKi: −log10 of the molar value.

The target in the first experiment is PB2 cap binding domain (PB2-CBD) (residues 318-483) (Influenza A virus, UniProt Q2LG68). In words: Cap Fluorescence-Polarization Ligand Displacement (CapFP-LD) assay. The note with it: read-out: Fp Ki, m7GTP-5FAM tracer displacement.
As to `COC(=O)C[C@@H](Nc1nc(-c2ccc3n[nH]c(=O)n3c2)ncc1F)C(C)C`, the pKi was 4.40.

`O=c1[nH]nc2ccc(-c3ncc(F)c(NCCO)n3)cn12`: the pKi is 4.56. On the same count and under the same terms, the same measure for `O=C(N[C@@H]1CCC[C@H](Nc2nc(-c3ccc4n[nH]c(=O)n4c3)ncc2F)C1)N1CCCC1`: 5.00. Still for that read-out and setting: to `COC(=O)[C@@H](Nc1nc(-c2ccc3n[nH]c(=O)n3c2)ncc1F)C(C)C` belongs 3.75. Still for that read-out and setting: to `O=c1[nH]nc2ccc(-c3ncc(F)c(NC4CCCCC4)n3)cn12` belongs 4.70.

The experiment is the same for the next values; noted with them: read-out: Fp, m7GTP-5FAM tracer displacement, quantity not given.
As for `COC(=O)CC(Nc1nc(-c2ccc3n[nH]c(=O)n3c2)ncc1F)C1CC1` (stereo not shown), the pKi is under 4.30. For the compound `O=C(N[C@@H]1CCC[C@H](Nc2nc(-c3cccc4n[nH]c(=O)n34)ncc2F)C1)N1CCCC1` [reference compound], the pKi was under 4.30.
